Source: US20080032931A1, “ACTIVATABLE CLOSTRIDIAL TOXINS” (published 2008)

Target: HV62, synthetic peptide corresponding to residues 33 to 94 of human VAMP-2 (human) (UniProt P63027)

Substance: native TeNT (tetanus neurotoxin) (enzyme)
- Initial rate of cleavage of HV62 (nmol · min^-1mg^-1): 20.3
